# Reference: PubChem BioAssay AID2320 (National Center for Advancing Translational Sciences (NCATS), 2010)
# The list shows a part of the results, in another mix than the full data. Results filed as inconclusive are left out. Active and inactive are the calls of the source. Calls follow the shape of the full dose curve.
# Experiment: A qHTS for Small Molecule Inhibitors of Shiga Toxin (Confirmatory); also: 0% is about no effect; nearly all actives have a fitted effect of over 75% in size
# Settings: Cell-based Shiga toxin protection reporter assay; at 38.3 µM (top of the series)
smiles,measurement,value
O=[N+]([O-])c1cc([N+](=O)[O-])c(-c2ccn[nH]2)s1,"activity, positive = inhibition of toxin",inactive: 32.8%
